Pooled drug test results. Numbers come from NIAID ChemDB, via PubChem.

Common to all: whole-cell or culture tests; agent: HIV-1; read by: RT activity; read-out: EC50

ECn is the concentration giving n% inhibition of infection, replication or growth. Rows are shuffled and stem from different studies. An empty or dashed field is not shown.

structure,mutations,cell line,setting,strain or isolate,result
Cc1ccsc1-c1cn([C@H]2C[C@H](O)[C@@H](CO)O2)c(=O)[nH]c1=O,,H9,,IIIB,>10 µg/mL
Cc1ccnc2c1NC(=O)c1cccnc1N2C1CC1,,U-937,,IIIB,0.3 µM
CCCCCCCCCCCCCCCCOP(=O)(OC[C@H]1OC(O)[C@H](O)[C@@H](O)[C@@H]1O)OC[C@H]1O[C@@H](n2cc(C)c(=O)[nH]c2=O)C[C@@H]1N=[N+]=[N-],,CEM,26 d,LAV-Bru,>1 µM
Nc1ccn([C@H]2CC[C@@H](CO)O2)c(=O)n1,,MT-2,,HX,0.22 µM
Cc1cn([C@H]2C[C@H](N=[N+]=[N-])[C@@H](CO)O2)c(=O)[nH]c1=O,,U-937,14 d,LAV-Bru,>25 µM
Nc1ccn([C@@H]2CS[C@H](CO)O2)c(=O)n1,RT-T69K K70G V75I F77L F116Y Q151M M184V,PBMC,,1617-1 NRTI resistant recombinant,>10 µM
Cc1cn([C@H]2C[C@H](N=[N+]=[N-])[C@@H](CO)O2)c(=O)[nH]c1=O,RT-M184V,MT-4,,HXB2-D184 (RT-M184V),0.018 µM
O=c1[nH]cnc2c1ncn2[C@H]1CC[C@@H](CO)O1,,MT-2,,PDBC,5 µM
CCCc1cc(=O)oc2c3c(c4c(c12)OC(C)(C)C=C4)O[C@@H](C)[C@H](C)[C@@H]3O,,PBMC,,CLADE A,0.1 µM
CCCCCCc1ccsc1-c1cn([C@H]2C[C@H](O)[C@@H](CO)O2)c(=O)[nH]c1=O,,H9,,IIIB,>10 µg/mL
COC(=O)[C@H](C)NP(=O)(OC[C@@H]1C=C[C@H](n2cc(C)c(=O)[nH]c2=O)O1)Oc1ccc(Br)cc1,RT-M41L T69ins L74V M184V L210W T215Y,PBMC,,52534-2 NRTI resistant recombinant,0.0046 µM
CCc1nc2ccccn2c1C(=O)c1cccs1,,PBMC,,IIIB,0.7 µM
Cc1cn([C@H]2C[C@H](N=[N+]=[N-])[C@@H](CO)O2)c(=O)[nH]c1=O,RT-D67N T69N K70R M184V T215F K219Q,PBMC,,7295-1 NRTI resistant recombinant,0.0008 µM
Nc1nc(=O)n([C@@H]2CO[C@H](CO)S2)cc1F,RT-M184V,CBMC,,4205(RT-M184V),>100 µM
Cc1ccc(C(=O)OC[C@H]2O[C@@H](n3cc(-c4ccoc4)c(N)nc3=O)C[C@@H]2OC(=O)c2ccc(C)cc2)cc1,,H9,,IIIB,<10 µg/mL
CCc1nc2sccn2c1C(=O)c1ccco1,,MT-4,,IIIB,17 µM
O=c1[nH]cnc2c1ncn2[C@H]1CC[C@@H](CO)O1,RT-D67G,MT-4,,HxB2D(RT-D67G),1.5 µM
CCc1nc2ncccn2c1C(=O)c1ccco1,,MT-4,,IIIB,>100 µM
CCCc1cc(=O)oc2c3c(c4c(c12)OC(C)(C)C=C4)O[C@H](C)[C@@H](C)[C@@H]3O,,PBMC,,CLADE A,0.07 µM
Nc1nc(=O)n([C@H]2CO[C@@H](CO)S2)cc1F,RT-M184V,CBMC,,3350(RT-M184V),18 µM
Cc1cn([C@H]2C[C@H](N=[N+]=[N-])[C@@H](COP(=O)(O)OC[C@H]3OC(O)[C@H](O)[C@@H](O)[C@@H]3O)O2)c(=O)[nH]c1=O,,CEM,7 d,LAV-Bru,<0.2 µM
Cc1ccc(C(=O)O[C@H]2C[C@H](n3cc(-c4cccs4)c(N)nc3=O)O[C@@H]2CO)cc1,,H9,,IIIB,>10 µg/mL
CC(C)(C)NC(=O)[C@@H]1CN(Cc2cccnc2)CCN1C[C@@H](O)C[C@@H](Cc1ccccc1)C(=O)N[C@H]1c2ccccc2C[C@H]1O,RT-T69K K70G V75I F77L F116Y Q151M M184V,PBMC,,1617-1 NRTI resistant recombinant,0.0052 µM
Cc1cn([C@H]2C[C@H](N=[N+]=[N-])[C@@H](CO)O2)c(=O)[nH]c1=O,,PBMC,,CLADE A,0.008 µM
Cc1cn([C@H]2C[C@H](N=[N+]=[N-])[C@@H](CO)O2)c(=O)[nH]c1=O,,CBMC,,4170 (AZT-resistant),0.65 µM
CCc1nc2ccccn2c1C(=O)c1ccc(O)cc1,,CEM + CEM-SS,,LAI,>100 µM

2 of the rows above, restated:

| structure | mutations | cell line | setting | strain or isolate | result |
|---|---|---|---|---|---|
| Cc1ccsc1-c1cn([C@H]2C[C@H](O)[C@@H](CO)O2)c(=O)[nH]c1=O |  | H9 |  | IIIB | >10 µg/mL |
| CCc1nc2sccn2c1C(=O)c1ccco1 |  | MT-4 |  | IIIB | 17 µM |